Results reported in PMC8601601.

Target: human ACE2(H34Y)
Assay: SPR
Settings: domain or fragment

Q: Which Kd does the source give for “WT SARS-CoV-2 RBD (residues Thr333-Pro527) (from UniProt P0DTC2 333-527)” here?
A: 76 nM
